Target: RTA depurination of yeast ribosomes (Ricinus communis, UniProt P02879)
Assay type: biochemical

With `Cc1cc(C)c(-c2ccc(C(=O)O)s2)c(C)c1` [RU-NT-75, 5-Mesitylthiophene-2-carboxylic Acid] the IC50 was 48 ± 11 µM.

— publication PMC10704857 (Journal of medicinal chemistry, 2021)
